Measured data: PubChem BioAssay AID504761 (Drosophila RNAi Screening Center, 2011)
Aim: 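Insect host genes that dengue virus relies on to spread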 (primary screen). Cell system: D.Mel-2 cells from Drosophila. Reagents: long dsRNA against Drosophila genes. Conditions: infection with dengue virus type 2; dose and infection time not stated. Measurement: 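Per well on two replicate plates, imaging gave the percent of cells positive for viral envelope protein, ranked by infection, and a nuclear count of cells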. Direction: infection score: higher = more virus-infected cells; cell count: higher = more cells in the well. Call rule: 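Very low infection ranking in both replicate wells (chance probability at most 0.065), then a retest showing infection dropped 1.5-fold or more at p below 0.05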. Calls: active = confirmed: knock-down lowers infection; inactive = not picked or not confirmed.
The deposit covers about 22,000 reagents; below is a random part of those that have a named target and a result. Over the whole deposit, 116 (0.52%) were called active. 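Calls depend on retest data that are not deposited; infection was ranked per plate without normalising between plates; the unit of the infection score is not given.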 Raw values vary from plate to plate and are shown uncorrected. A number with no mark means an inactive call. Names joined by + are all predicted targets of the reagent. Not stated in the record: the amount of reagent, the time to read-out.

The opening 2 entries as a preview:
| gene knocked down | PubChem SID | infection score, replicate 1 | infection score, replicate 2 | cell count, replicate 1 | cell count, replicate 2 |
| --- | --- | --- | --- | --- | --- |
| mRpL2 | SID104190688 | 8.68 | 11.4 | 5517 | 4724 |
| CG15625 | SID104180252 | 4.69 | 3.04 | 2241 | 6021 |

The listing, repeating the preview:
| gene knocked down | PubChem SID | infection score, replicate 1 | infection score, replicate 2 | cell count, replicate 1 | cell count, replicate 2 |
| --- | --- | --- | --- | --- | --- |
| mRpL2 | SID104190688 | 8.68 | 11.4 | 5517 | 4724 |
| CG15625 | SID104180252 | 4.69 | 3.04 | 2241 | 6021 |
| CG15625 | SID104207775 | 9.27 | 8.88 | 1338 | 5971 |
| CG42674 | SID104189858 | 1.6 | 1.23 | 7080 | 6725 |
| CG42674 | SID104189859 | 8.86 | 9.65 | 6312 | 6415 |
| CG42674 | SID104190603 | 2.49 | 7.68 | 6419 | 6069 |
| CG42674 | SID104203582 | 3.33 | 2.38 | 6856 | 6303 |
| CG42674 | SID104208245 | 8.49 | 1.52 | 6528 | 6366 |
| eater | SID104195761 | 8.89 | 4.99 | 6442 | 6154 |
| eater | SID104201779 | 0.2 | 2.6 | 6409 | 6421 |
| eater | SID104208489 | 9.02 | 3.93 | 6333 | 6407 |
| CR12628 + Mgstl | SID104183494 | 6.89 | 23.4 | 6908 | 6459 |
| CR12628 + Mgstl | SID104200360 | 14.7 | 3.08 | 6154 | 5719 |
| DhpD | SID104192080 | 36.8 | 20.7 | 6041 | 5181 |
| htl | SID104196760 | 0.23 | 31.2 | 443 | 5553 |
| CG33061 | SID104189730 | 1.03 | 3.77 | 5629 | 5808 |
| CG33061 | SID104202256 | 0.98 | 6.25 | 5943 | 5821 |
| Sf3b6 | SID104189764 | 1.67 | 4.12 | 4600 | 3957 |
| Sf3b6 | SID104205006 | 4.91 | 16.2 | 5113 | 4506 |
| klu | SID104191149 | 2.65 | 2.57 | 5877 | 6413 |
| klu | SID104204911 | 8.06 | 9.17 | 4590 | 6487 |
| Ripalpha | SID104182449 | 3.96 | 2.4 | 6739 | 6825 |
| Cpr62Bc | SID104188337 | 3.26 | 1.14 | 6359 | 6490 |
| Cpr62Bc | SID104205015 | 3.35 | 0.87 | 6184 | 5655 |
